Laboratory results as given in article PMC4158421, “Screening-based discovery of Aspergillus fumigatus plant-type chitinase inhibitors” (Febs Letters, 2014).
Where two headings read alike, the source gives them in different places.

Amino acid sequences for entries named in this document (tags omitted). Residues count along the entry.
UniProt Q873Y0, 28-337 limits assumed: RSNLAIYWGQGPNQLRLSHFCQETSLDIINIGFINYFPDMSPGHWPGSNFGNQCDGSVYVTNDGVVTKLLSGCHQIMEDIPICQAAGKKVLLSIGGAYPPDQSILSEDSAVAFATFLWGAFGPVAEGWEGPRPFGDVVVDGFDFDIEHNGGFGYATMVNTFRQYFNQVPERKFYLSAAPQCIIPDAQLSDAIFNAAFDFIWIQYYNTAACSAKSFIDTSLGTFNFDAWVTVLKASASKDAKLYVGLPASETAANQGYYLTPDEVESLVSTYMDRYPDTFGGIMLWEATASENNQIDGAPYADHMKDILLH
UniProt Q9BZP6, 22-476 limits assumed: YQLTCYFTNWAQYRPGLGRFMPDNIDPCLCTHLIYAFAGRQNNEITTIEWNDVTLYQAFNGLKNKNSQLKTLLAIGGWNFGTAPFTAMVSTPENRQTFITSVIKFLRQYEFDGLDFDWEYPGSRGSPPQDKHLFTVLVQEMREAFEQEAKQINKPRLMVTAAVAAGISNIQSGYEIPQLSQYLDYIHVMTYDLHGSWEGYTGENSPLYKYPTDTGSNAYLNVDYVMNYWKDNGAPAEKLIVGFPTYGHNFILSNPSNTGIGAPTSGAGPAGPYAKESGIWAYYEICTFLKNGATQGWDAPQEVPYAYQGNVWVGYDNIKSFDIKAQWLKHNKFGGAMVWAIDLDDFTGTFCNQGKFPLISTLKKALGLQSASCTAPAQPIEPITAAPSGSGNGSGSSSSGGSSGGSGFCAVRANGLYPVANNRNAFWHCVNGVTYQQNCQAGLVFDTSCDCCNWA

What was measured:
[1] = molecular target: Aspergillus fumigatus chitinase A1 (AfChiA1) (Aspergillus fumigatus, UniProt Q873Y0); test: AfChiA1 fluorescent enzyme assay (4MU-GlcNAc3 hydrolysis), HTS and potency determination; assay type: biochemical
Experimental: The Dundee Drug Discovery Unit (DDU) diversity set of 59,904 compounds was solubilised in DMSO (final maximum assay concentration of 1% (v/v) in all samples including controls) and a HTS performed in singlet at a concentration of 30 μM. Library compounds and DMSO controls were transferred to 384-well black polystyrene plates (Matrix) using a Hummingbird (Genomic Solutions). Columns 1–22 received library compounds, columns 23 and 24 were reserved for high/low controls (DMSO) and an 8-point standard inhibitory curve with acetazolamide (Sigma), a micromolar AfChiA1 inhibitor [26]. Quality control (QC) plates, two per six assay plates, consisted of low control (columns 1–10), high control (columns 11–20) and a standard curve (columns 21–24). AfChiA1 catalyses the hydrolysis of chitin and an existing assay liberating 4-methylumbelliferyl (4-MU) from the fluorogenic substrate 4-methylumbelliferyl β-D-N,N′,N″-triacetylchitotrioside (4-MU-GlcNAc3, Sigma) was optimised for microtitre plate format compatible with HTS [26]. AfChiA1 activity was assayed in McIlvaine’s buffer (100 mM citric acid, 200 mM sodium phosphate [pH 5.5]) and 0.05 mg/ml BSA (Pierce) in a final reaction volume of 42 μl. Each reaction contained 10 nM AfChiA1 except eight wells in column 24 (screening plates) and columns 1–10 (QC plates), to which only buffer was added to determine background signal. The reaction was initiated by 100 μM 4MU-GlcNAc3 and both additions were executed using a FlexDrop reagent dispenser (PerkinElmer). Assay plates were incubated on a microtitre plate shaker (Heidolph) at room temperature for 70 min. Fluorescence generated from the release of 4-MU was quantified using an EnVision 2102 multilabel reader (Perkin Elmer).
The Activity Base Suite (Abase) version 5.4 from IDBS was used for all data processing and analyses. For all compounds, the raw relative fluorescent units (RFUs) were corrected and normalised to percentage inhibition (PI) according to the equations in Table S1. Calculation of the Z-factor to determine the quality of the screening assay was as follows: Z-factor=1-(3SDhigh control+3SDlow control)/(Meanhigh control-Meanlow control) for which SDhigh control and SDlow control represent the standard deviations of the response from 8 to 12 control wells (uninhibited signal) and 8 to 12 background signal wells, respectively. Subsequent curve fitting to determine the IC50 was with XLFit version 4.2 (IDBS) using a four-parameter dose response curve.
Initial hits were (a) re-assayed at 30 μM for verification and (b) potency determined to generate an approximate IC50. Compounds were transferred into columns 1 and 13 of a 384-well polypropylene plate (Matrix) and serially diluted in 100% DMSO through 10 half-log increments in row orientation using a JANUS 8-channel Varispan automated workstation (PerkinElmer). This produced a source plate containing thirty test and two standard inhibitor curves (100× final assay concentration) in columns 1–10 and 13–22. An additional QC plate containing acetazolamide was also generated. From these source plates 0.5 μl, corresponding to a final concentration range of 30 μM to 1.5 nM, were transferred into replicate black 384-well polystyrene assay plates in duplicate. AfChiA1 and substrate were added as in the original screen.
Compounds 1, 2, 6 and 7 (ChemBridge Corporation, San Diego, CA, USA); compounds 3, 4 and 8 (ChemDiv, San Diego, CA, USA); compounds 9 and 11 (Asinex Europe, Rijswijk, NED); compound 5 (Maybridge, Fisher Scientific, Loughborough, UK); compound 10 (InterBioScreen, Moscow, RUS) and compound 12 (Enamine, Monmouth, NJ, USA). For accurate duplicate potency determinations, the starting concentration was increased from 30 μM to 120 μM and diluted as described.

[2] = molecular target: A. fumigatus chitinase B1 (AfChiB1) (Aspergillus fumigatus, UniProt Q873X9); test: Counter screening assay against AfChiB1; assay type: biochemical; conditions: for IC50: read-out: GH18 family chitinase IC50, bacterial-type, AfChiB1, substrate 4MU-NAG2
Experimental: Counter screening assays to determine an IC50 against other GH18 family chitinases included S. cerevisiae CTS1 (ScCTS1, model plant-type chitinase) and three bacterial-type chitinases (A. fumigatus chitinase B1 [AfChiB], acidic mammalian chitinase [AMCase] and Homo sapiens chitinase 1/chitotriosidase [HsCHT]). Assays were performed as per AfChiA1 with the following modifications, [29]. Bacterial-type chitinases (AfChiB, AMCase and HsCHT) utilised 4-methylumbelliferyl β-D-N-N-diacetylchitobioside (4MU-NAG2) as a substrate and for these pentoxifylline (Sigma) was used as a control inhibitor [30]. Substrate concentrations for IC50 determinations were selected according to the published Km values for each enzyme, [29], [31], [32]. The mode of inhibition was established by Lineweaver–Burk plots of steady-state kinetics with 50 μM to 1 mM of 4MU-GlcNAc3 in the presence of different concentrations of selected compounds [23].

AfChiA1 = AfChiA1 (Aspergillus fumigatus, UniProt Q873Y0); test: Steady-state kinetics, Lineweaver-Burk analysis against AfChiA1; conditions: for Ki: read-out: inhibition constant Ki against AfChiA1, competitive inhibition model, 50 μM to 1 mM 4MU-GlcNAc3
[3] = molecular target: acidic mammalian chitinase (AMCase) (Homo sapiens, UniProt Q9BZP6); test: Counter screening assay against AMCase; assay type: biochemical
[4] = read-out: GH18 family chitinase IC50, plant-type, AfChiA1, repeat potency determinations in duplicate on re-purchased compounds, 10-point dilution starting at 120 μM

SMILES	IC50 [1, 4]	IC50 [2]	also measured
Cc1nc2sc(C(=O)Nc3c(F)cc(F)cc3Br)c(C)c2c(=O)[nH]1	6.6 µM		
CCc1nnc(NC(=O)c2sc3nccc(COC)c3c2N)s1	16.2 µM		
Cc1nc2scc(-c3ccccc3)c2c(=O)[nH]1	23.7 µM	65.5 µM	
CC(=O)c1cnc2c(-c3ccc(Cl)cc3)cnn2c1C	34.9 µM		fold difference of repeat AfChiA1 IC50 versus original potency determination ([1]; re-purchased compound versus original IC50): 15 fold
CSc1ccc(C2C(C#N)=C(N)Oc3nc(C)[nH]c(=O)c32)cc1 (stereo not drawn)	14.3 µM		
Cc1nn(C)cc1C(=O)Nc1ccc(Cl)cc1	58.8 µM		
Cc1c(C(=O)N2CCN(CCc3ccccc3)CC2)oc2ccccc12	11.4 µM	> 100 µM	mode of inhibition of AfChiA1 (AfChiA1; Lineweaver-Burk analysis): competes with the pseudo-substrate 4MU-GlcNAc3; Ki (AfChiA1): 10.6 µM
NC1=C(c2nc3ccccc3[nH]2)C(=O)CN1CCc1ccccc1	19.4 µM		
COc1ccccc1-c1noc2nc(C)[nH]c(=O)c12		> 100 µM	IC50 ([1]; read-out: initial IC50 against AfChiA1, original potency determination of primary hits, 10-point curves from 30 μM, duplicate): 1.7 µM; activity against AfChiB [2]: no activity; drop-off in potency against AMCase compared to AfChiA1 [3]: fourfold drop-off in potency; Ki (AfChiA1): 1.2 µM
